Taken from: PubChem BioAssay AID1259414 (Drosophila RNAi Screening Center, 2018)
The screen tested about 24,000 reagents; shown is a random part of those that have a named target and a result. In the full data, about 1,210 (5%) got an active call. 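Inactive calls also include excluded dsRNAs with several or no targets, genes unexpressed in JW18, and well A1, regardless of score.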

Aim: 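Fly genes that alter Wolbachia amount inside host cells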 (primary screen)
System: Drosophila JW18 cells infected with Wolbachia
Knock-down reagent: long dsRNA against Drosophila genes, 0.25 µg dsRNA per well of a 384-well plate
Timing: 5 days
Treatment: cells persistently infected with Wolbachia before knock-down; no added drug
Measured: 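Imaged fluorescence in situ signal for Wolbachia 23S rRNA per DAPI-counted host cell, given as a robust z-score within each plate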
Direction: Wolbachia per cell robust z: higher = more Wolbachia per host cell than the plate typical
Hit rule: 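Active if absolute robust z reaches 1.5 in two or more of three replicates, leaving out multi- or no-target dsRNAs, genes unexpressed in JW18 and A1 wells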

gene	dsRNA	Wolbachia per cell robust z, rep 1	Wolbachia per cell robust z, rep 2	Wolbachia per cell robust z, rep 3	call
Psi (P-element somatic inhibitor)	DRSC07519	1.54	0.89	1.42	inactive
Psi (P-element somatic inhibitor)	DRSC25220	0.71	-1.54	-0.383	inactive
Psi (P-element somatic inhibitor)	DRSC38971	-0.092	-0.36	0.306	inactive
CG14190	DRSC19545	0.185	-1.37	-0.204	inactive
CG14190	DRSC27410	1.09	0.353	0.689	inactive
CG4483	DRSC10426	0.196	-1.27	0.129	inactive
Cyp9c1 (Cytochrome P450 9c1)	DRSC04607	0.48	-1.82	0.207	inactive
Cyp9c1 (Cytochrome P450 9c1)	DRSC41542	0.767	-0.436	1.11	inactive
sxe2 (sex-specific enzyme 2)	DRSC15692	-0.364	-0.0559	0.457	inactive
Twdlalpha (Tweedlealpha)	DRSC19914	-0.177	-1.29	-3.36	inactive
Twdlalpha (Tweedlealpha)	DRSC28661	-1.76	-2.27	-1.29	inactive

Already shown: an excerpt of the list.
gene	dsRNA	Wolbachia per cell robust z, rep 1	Wolbachia per cell robust z, rep 2	Wolbachia per cell robust z, rep 3	call
Psi (P-element somatic inhibitor)	DRSC38971	-0.092	-0.36	0.306	inactive
CG14190	DRSC19545	0.185	-1.37	-0.204	inactive

The list goes on.
gene	dsRNA	Wolbachia per cell robust z, rep 1	Wolbachia per cell robust z, rep 2	Wolbachia per cell robust z, rep 3	call
Camta (Calmodulin-binding transcription activator)	DRSC07272	-1.2	0.237	0.0408	inactive
Camta (Calmodulin-binding transcription activator)	DRSC23081	-0.206	-0.156	0.0127	inactive
Camta (Calmodulin-binding transcription activator)	DRSC23156	0.314	-4.28	0.659	inactive
Camta (Calmodulin-binding transcription activator)	DRSC26757	0.574	0.928	0.471	inactive
Camta (Calmodulin-binding transcription activator)	DRSC27929	-0.809	-0.629	0.327	inactive
L2HGDH (L-2-hydroxyglutarate dehydrogenase)	DRSC02082	-0.393	-1.16	0.335	inactive
L2HGDH (L-2-hydroxyglutarate dehydrogenase)	DRSC25864	0.0192	-0.537	-0.895	inactive
CG33641	DRSC37845	0.323	-1.27	-3.88	inactive
Nf-YB (Nuclear factor Y-box B)	DRSC02057	-0.909	-0.395	-0.672	inactive
CheA75a (Chemosensory protein A 75a)	DRSC10807	-0.211	1.15	-0.294	inactive
tacc (transforming acidic coiled-coil protein)	DRSC12019	-0.6	-0.99	-7.56	inactive
tacc (transforming acidic coiled-coil protein)	DRSC12388	1.16	0.754	-0.092	inactive
tacc (transforming acidic coiled-coil protein)	DRSC29052	0.892	0.585	-0.73	inactive
tacc (transforming acidic coiled-coil protein)	DRSC40809	0.698	0.378	-0.761	inactive
lncRNA:CR42862 (long non-coding RNA:CR42862)	DRSC08348	-0.571	0.623	-1.09	inactive
lncRNA:CR42862 (long non-coding RNA:CR42862)	DRSC27596	-1.21	-1.3	0.248	inactive
lncRNA:CR42862 (long non-coding RNA:CR42862)	DRSC36563	0.387	1.58	0.0228	inactive
